Results of unrelated studies side by side (data: NIAID ChemDB).

All rows: whole-cell or culture tests; agent: Rhinovirus

A number after MIC or MFC names an inhibition level or a share of isolates. Blank or dashed fields: not listed here. Conditions beyond the fields shown may differ between rows. ECn is the concentration giving n% inhibition of infection, replication or growth.

SMILES	strain	cell line	read by	measure	value
CN(C)c1nc(Cl)nc2c1ncn2Cc1ccc(Cl)cc1	Serotype 29	M-HELA	plaque count	EC50	>5 µM
CN(C)c1ncnc2c1ncn2Cc1ccccc1NC(=O)CN	Serotype 1B	M-HELA	plaque count	EC50	>50 µM
CSc1nsc(-c2ccc(OCCCOc3ccccc3)cc2)c1C#N	Serotype 45 (group A)	HELA-OHIO	cytopathic effect	EC50	>20 µM
CCON[C@H](C(=O)N[C@@H](CC(C)C)C(=O)N[C@@H](Cc1ccccc1)C(=O)C(=O)/C=C/[C@H](CCC(N)=O)NC(=O)OC(C)(C)C)C(C)C	TYPE 14	HeLa	plaque count	EC50	0.41 µg/mL
CCCOc1nc2cc(OCCC3CCN(c4ccc(C)nn4)CC3)ccc2s1	Serotype 2	MRC-5	cytopathic effect	EC50	0.166 µg/mL
CCOC(=O)/C=C/[C@H](C[C@@H]1CCNC1=O)NC(=O)[C@H](Cc1ccc(F)cc1)NC(=O)[C@@H](NC(=O)c1cc(C)on1)C(C)(C)C	Serotype 14	H1-HELA	XTT	EC50	0.004 µM
O=c1c(O)c(-c2ccc(Cl)cc2)oc2ccccc12	Serotype 1B	HeLa	plaque count	EC50	1.27 µM
Clc1ccc2c(c1)C=C(c1ccc(Br)cc1)CO2	Serotype 1B	M-HELA	plaque count	EC50	3.24 µM
O=C(/C=C(\O)c1ccccc1O)/C=C/c1ccc(Cl)cc1	Serotype 1B	HeLa	plaque count	EC50	10.8 µM
CC(C)CC(N)C(=O)Nc1ccc(Cn2cnc3c(N(C)C)ncnc32)cc1	Serotype 1B	M-HELA	plaque count	EC50	>50 µM
CCOC(=O)c1ccc(OCCC2CCN(c3ccc(C)nn3)CC2)cc1	Serotype 89 (group B)	HELA-OHIO	cytopathic effect	EC50	0.005 µM
c1ccc(C2CCc3cc(C4=NCCO4)ccc3O2)cc1	TYPE 1B	HeLa	plaque count	EC50	4.01 µM
Nc1ncnc2c1ncn2Cc1cccc(NC(=O)C(N)Cc2ccccc2)c1	Serotype 1B	M-HELA	plaque count	EC50	>50 µM
Cc1ccc(/C=C/C(=O)/C=C(\O)c2ccccc2O)cc1	Serotype 14	HeLa	plaque count	EC50	17.52 µM
O=C(O)c1ccc(-c2oc3ccccc3c(=O)c2O)cc1	TYPE 1B	OHIO HELA	plaque count	EC50	12.1 µM
Cn1c2ccccc2c2nnc(NCCCN)nc21	HGP	WI-38	plaque count	EC50	10 µg/mL
Cc1nc(-c2cc(C)c(OCCCc3ccc(C(F)F)nn3)c(C)c2)no1	serotypes 3 4 5 9 16 18 38 66 75 67	HeLa	cytopathic effect	EC50	0.074 µg/mL
CN(C)c1ncnc2c1ncn2Cc1cccc([N+](=O)[O-])c1	Serotype 1B	M-HELA	plaque count	EC50	>50 µM
CS(=O)(=O)c1ccc(NCc2ccc(Cl)c(Cl)c2)nc1	TYPE 9	HeLa	cytopathic effect	EC50	5 µg/mL
c1ccc2c(c1)CCC(c1ccc(C3=NCCO3)cc1)O2	TYPE 1B	HeLa	plaque count	EC50	0.56 µM
CON[C@H](CCC(=O)OC(C)(C)C)C(=O)N[C@H](C(=O)N[C@@H](CC(C)C)C(=O)N[C@@H](Cc1ccccc1)C(=O)C(=O)/C=C/[C@H](CCC(N)=O)NC(=O)OC(C)(C)C)C(C)C	TYPE 14	HeLa	plaque count	EC50	4.5 µg/mL
O=C(O)c1ccc(-c2cc(=O)c3ccccc3o2)cc1	TYPE 1B	OHIO HELA	plaque count	EC50	>25 µM
Cc1ccc(Cc2ccc(S(C)(=O)=O)cn2)cc1	TYPE 1A	HeLa	cytopathic effect	EC50	5 µg/mL
CSc1nsc(-c2ccc(OCCOc3ccc([N+](=O)[O-])cc3)cc2)c1C#N	Serotype 9 (group B)	HELA-OHIO	cytopathic effect	EC50	>2 µM
CN(C)c1ncnc2c1ncn2Cc1ccc(N)cc1	Serotype 1B	M-HELA	plaque count	EC50	>50 µM
N#Cc1ccc2c(c1)CCC(c1ccccc1)O2	TYPE 1B	HeLa	plaque count	EC50	0.14 µM
CC(C)n1c(N)nc2ccc(C(C(N)=O)c3cccc(F)c3F)cc21	1059 (serotype 14)	HeLa	plaque count	EC50	0.07 µg/mL
CNC(=O)/C=C(\c1ccccc1)c1ccc2nc(N)c(-c3ccccc3)n2c1	TYPE 14	H-HELA	cytopathic effect	EC50	0.3 µg/mL
COc1cc(/C=C/C(=O)Oc2c(-c3ccc(Cl)cc3)oc3ccccc3c2=O)ccc1O	Serotype 14	HeLa	plaque count	EC50	3.24 µM
CSc1nsc(-c2ccc(OCCOc3ccc(C#N)cc3)cc2)c1C#N	Serotype 70 (group A)	HELA-OHIO	cytopathic effect	EC50	>2 µM
COc1cc(/C=C/C(=O)Oc2c(-c3ccc(Cl)cc3)oc3ccccc3c2=O)ccc1OC(C)=O	Serotype 14	HeLa	plaque count	EC50	>1.56 µM
CC(=O)OCCCNc1nnc2c3ccccc3n(C)c2n1	1059	WI-38	plaque count	EC50	220 µg/mL
CC(C)CC(N)C(=O)Nc1ccc(Cn2cnc3c(N)ncnc32)cc1	Serotype 1B	M-HELA	plaque count	EC50	>50 µM
CNC(=O)C(c1ccc2nc(N)n(S(=O)(=O)C(C)C)c2c1)c1cccc(F)c1F	1059 (serotype 14)	HeLa	plaque count	EC50	0.01 µg/mL
COC(=O)c1ccc(-c2oc3ccccc3c(=O)c2OC)cc1	TYPE 1B	OHIO HELA	plaque count	EC50	>25 µM
Cn1c2ccccc2c2nnc(NCC(O)CO)nc21	HGP	WI-38	plaque count	EC50	100 µg/mL
CC1=NN(c2c(Cl)cc(Cl)cc2Cl)C(=O)C1	Serotype 13	WI-38	cytopathic effect	EC50	2.5 µM
COCCCNc1nnc2c3ccccc3n(C)c2n1	33342	WI-38	plaque count	EC50	100 µg/mL
CNC(=O)/C=C(\c1ccccc1)c1ccc2nc(N)c(-c3ccc(F)cc3C(F)(F)F)n2c1	TYPE 14	H-HELA	plaque count	EC50	0.44 µg/mL
CC(C)C[C@H](NC(=O)[C@@H](NO)C(C)C)C(=O)N[C@@H](Cc1ccccc1)C(=O)C(=O)/C=C/[C@H](CCC(N)=O)NC(=O)OC(C)(C)C	TYPE 14	HeLa	plaque count	EC50	>10 µg/mL
CC(=O)c1c(-c2ccc(Cl)cc2)oc2ccccc2c1=O	Serotype 1B	HeLa	plaque count	EC50	1.36 µM
Nc1ccc(/C=C/c2cc(=O)c3ccccc3o2)cc1	Serotype 14	HeLa	plaque count	EC50	13.46 µM
Cc1cc(CCCCCOc2cc(Cl)c(-c3nnco3)c(Cl)c2)on1	Serotype 86	-	-	MIC80	1.28 µg/mL
N#Cc1ccc(C2CCc3cc(C#N)ccc3O2)cc1	TYPE 1B	HeLa	cytopathic effect	EC50	0.32 µM
Brc1ccc(C2=Cc3cc(Br)ccc3OC2)cc1	Serotype 1B	M-HELA	plaque count	EC50	3.28 µM
CCCc1ccc(CCCOc2cc(C)c(-c3noc(C4CC4)n3)c(C)c2)nn1	serotypes 3 4 5 9 16 18 38 66 75 67	HeLa	cytopathic effect	EC50	0.05 µg/mL
CNC(=O)/C=C(\c1ccccc1)c1ccc2nc(N)c(I)n2c1	TYPE 14	H-HELA	plaque count	EC50	>3.2 µg/mL
Cc1cc(OCCCc2ccc(C(C)F)nn2)ccc1-c1noc(C(F)F)n1	serotypes 3 4 5 9 16 18 38 66 75 67	HeLa	cytopathic effect	EC80	0.15 µg/mL
Cc1cc(CCCCCOc2c(C)cc(-c3nnc(C)o3)cc2C)on1	serotype 2 1A 1B 6 14 21 22 15 25 30 50 67 89 86 41	-	-	MIC50	0.34 µg/mL
Cc1cc(C(=O)N[C@H](C(=O)C[C@@H](Cc2ccc(F)cc2)C(=O)N[C@H](/C=C2\CCOC2=O)C[C@@H]2CCNC2=O)C(C)C)no1	Serotype 14	H1-HELA	XTT	EC50	<0.03 µM
O=C(Oc1c(-c2ccc(Cl)c(Cl)c2)oc2ccccc2c1=O)c1cc(O)c(O)c(O)c1	Serotype 14	HeLa	plaque count	EC50	>25 µM
Cn1c(O)c(N=NC(N)=S)c2ccccc21	HGP	WI-38	plaque count	EC50	22 µg/mL
Nc1nc2c(ccn2[C@@H]2C[C@H](CO)[C@@H](O)[C@@H]2O)c(=O)[nH]1	TYPE 31	-	-	MIC	>100 µg/mL
Brc1ccc(C2=Cc3ccccc3OC2)cc1	Serotype 1B	M-HELA	plaque count	EC50	3.846 µM
COC(=O)/C=C/[C@H](CCC(N)=O)NC(=O)[C@H](Cc1ccccc1)NC(=O)OC(C)(C)C	TYPE 14	HeLa	plaque count	EC50	>10 µg/mL
CNC(=O)C(c1ccc2nc(N)n(S(=O)(=O)C(C)C)c2c1)c1cc(F)ccc1F	1059 (serotype 14)	HeLa	plaque count	EC50	0.06 µg/mL
CCOC(=O)/C=C/[C@H](CCC(N)=O)NC(=O)OCc1ccccc1	TYPE 14	HeLa	plaque count	EC50	>10 µg/mL
CCOC(=O)c1ccc(OCCCOc2ccc(-c3snc(SC)c3C#N)cc2)cc1	Serotype 72 (group A)	HELA-OHIO	cytopathic effect	EC50	>2 µM
CN(C)c1ncnc2c1ncn2Cc1ccccc1NC(=O)C(N)Cc1ccccc1	Serotype 1B	M-HELA	plaque count	EC50	>50 µM
O=C(/C=C(\O)c1ccccc1O)/C=C/c1ccc(O)cc1	Serotype 14	HeLa	plaque count	EC50	8.64 µM
CS(=O)(=O)c1ccc(Cc2ccc(Cl)c(Cl)c2)nc1	TYPE 1A	HeLa	cytopathic effect	EC50	0.3 µg/mL
CCSc1ccc(Oc2ccc(C(=O)c3ccccc3)cc2)nc1C#N	TYPE 2	HeLa	cytopathic effect	EC50	>3.1 µg/mL
CC1=CC(C(=O)N[C@H](C(=O)C[C@@H](Cc2ccc(F)cc2)C(=O)N[C@H](/C=C2\CCOC2=O)CCC(N)=O)C(C)C)NO1	Serotype 14	H1-HELA	XTT	EC50	0.18 µM
O=c1c(O)c(-c2ccc(Cl)c(Cl)c2)oc2ccccc12	Serotype 1B	HeLa	plaque count	EC50	3.19 µM
CCOc1nc2ccc(OCCC3CCN(c4nnc(C)c(C)n4)CC3)cc2o1	Serotype 14	MRC-5	cytopathic effect	EC50	0.198 µg/mL
Cc1ccc(Cn2cnc3c(N(C)C)nc(C(F)(F)F)nc32)cc1	TYPE 16	M-HELA	plaque count	EC50	>5 µM
CS(=O)(=O)c1ccc(Oc2ccc(C(=O)c3ccccc3)cc2)nc1	TYPE 74	HeLa	cytopathic effect	EC50	>10 µg/mL
N#Cc1cc([N+](=O)[O-])ccc1Oc1ccc(Cl)c(Cl)c1	TYPE 64	HeLa	cytopathic effect	EC50	0.2 µg/mL
O=c1c(O)c(-c2ccc(C3=NCCO3)cc2)oc2ccccc12	TYPE 1B	OHIO HELA	plaque count	EC50	9.37 µM
Cc1c(-c2ccccc2)n(-c2ccc(F)cc2)c2ccc(C(C)C)cc2c1=O	36/342H	HELA-OHIO	cytopathic effect	EC50	0.13 µg/mL
CNC(=O)C(c1ccc2nc(N)n(C(C)C)c2c1)c1cccc(F)c1F	1059 (serotype 14)	HeLa	plaque count	EC50	0.06 µg/mL
Clc1ccc(C2COc3ccc(Cl)cc3C2)cc1	Serotype 1B	M-HELA	cytopathic effect	EC50	0.36 µM
CC(C)S(=O)(=O)n1c(N)nc2ccc(C(C(N)=O)c3ccc(F)c(F)c3F)cc21	1059 (serotype 14)	HeLa	plaque count	EC50	0.02 µg/mL
CSc1nsc(-c2ccc(OCCOc3ccccc3)cc2)c1C#N	Serotype 86 (group A)	HELA-OHIO	cytopathic effect	EC50	0.3 µM
CSc1nc2ccc(OCCC3CCN(c4ccc(Cl)nn4)CC3)cc2o1	Serotype 2	MRC-5	cytopathic effect	EC50	0.067 µg/mL
Nc1ccn([C@@H]2C=C(CO)[C@@H](O)[C@H]2O)c(=O)n1	TYPE 9	WI-38	cytopathic effect	EC50	2 µg/mL
CCOc1cnc2ccc(OCCC3CCN(c4ccc(C)nn4)CC3)cc2n1	Serotype 2	MRC-5	cytopathic effect	EC50	0.084 µg/mL
Cc1ccc(CCCOc2c(C)cc(-c3noc(C)n3)cc2C)nn1	serotypes 2 14 1A 1B 6 21 22 15 25 30 50 67 89 86 41	HeLa	cytopathic effect	EC50	0.241 µg/mL
CC(=O)Oc1ccc(/C=C/C(=O)Oc2c(-c3ccc(Cl)c(Cl)c3)oc3ccccc3c2=O)cc1OC(C)=O	Serotype 1B	HeLa	plaque count	EC50	>0.39 µM
Cc1c(-c2ccccc2)n(-c2cccc(F)c2)c2ccc(C(C)C)cc2c1=O	36/342H	HELA-OHIO	cytopathic effect	EC50	0.085 µg/mL
CCO/N=C/c1ccc(OCCC2CCN(c3ccc(Cl)nn3)CC2)cc1	CH79 (ICAM-1 receptor group 38)	KB	neutral red	EC50	0.023 µM
CCn1c2c(c(=O)c3cc(C(C)C)ccc31)Cc1ccccc1-2	41/56110	HELA-OHIO	cytopathic effect	EC50	0.2 µg/mL
COC(=O)[C@H](Cc1cccc2ccccc12)Nc1nc2ccc(NC(=O)OC(C)(C)C)c(C)c2c(=O)o1	Serotype 10	H1-HELA	XTT	EC50	0.4 µM

7 of the rows above, restated:

{"SMILES": "CCOC(=O)c1ccc(OCCC2CCN(c3ccc(C)nn3)CC2)cc1", "strain": "Serotype 89 (group B)", "cell line": "HELA-OHIO", "read by": "cytopathic effect", "measure": "EC50", "value": "0.005 µM"}
{"SMILES": "Cc1nc(-c2cc(C)c(OCCCc3ccc(C(F)F)nn3)c(C)c2)no1", "strain": "serotypes 3 4 5 9 16 18 38 66 75 67", "cell line": "HeLa", "read by": "cytopathic effect", "measure": "EC50", "value": "0.074 µg/mL"}
{"SMILES": "O=c1c(O)c(-c2ccc(Cl)c(Cl)c2)oc2ccccc12", "strain": "Serotype 1B", "cell line": "HeLa", "read by": "plaque count", "measure": "EC50", "value": "3.19 µM"}
{"SMILES": "N#Cc1ccc(C2CCc3cc(C#N)ccc3O2)cc1", "strain": "TYPE 1B", "cell line": "HeLa", "read by": "cytopathic effect", "measure": "EC50", "value": "0.32 µM"}
{"SMILES": "Brc1ccc(C2=Cc3cc(Br)ccc3OC2)cc1", "strain": "Serotype 1B", "cell line": "M-HELA", "read by": "plaque count", "measure": "EC50", "value": "3.28 µM"}
{"SMILES": "CC(C)CC(N)C(=O)Nc1ccc(Cn2cnc3c(N(C)C)ncnc32)cc1", "strain": "Serotype 1B", "cell line": "M-HELA", "read by": "plaque count", "measure": "EC50", "value": ">50 µM"}
{"SMILES": "Cc1ccc(Cc2ccc(S(C)(=O)=O)cn2)cc1", "strain": "TYPE 1A", "cell line": "HeLa", "read by": "cytopathic effect", "measure": "EC50", "value": "5 µg/mL"}